Data as given in PubChem BioAssay AID1259414 (Drosophila RNAi Screening Center, 2018)

Aim: 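Fly genes that alter Wolbachia amount inside host cells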 (primary screen)
Cell system: Drosophila JW18 cells infected with Wolbachia
Reagent: long dsRNA against Drosophila genes, 0.25 µg dsRNA per well of a 384-well plate
Duration: 5 days
Treatment: cells persistently infected with Wolbachia before knock-down; no added drug
Read-out: 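Imaged fluorescence in situ signal for Wolbachia 23S rRNA per DAPI-counted host cell, given as a robust z-score within each plate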
Scale: Wolbachia per cell robust z: higher = more Wolbachia per host cell than the plate typical
Call rule: 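Hit when robust z is 1.5 or more, or -1.5 or less, in at least two of three replicates; excludes dsRNAs with several or no targets, genes not expressed in JW18 and well A1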
In all, the deposit lists about 24,000 reagents; this is a random part of those with a known target gene and a result. Over the whole deposit, about 1,210 (5%) were called active. 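Inactive calls also include excluded dsRNAs with several or no targets, genes unexpressed in JW18, and well A1, regardless of score.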 Names joined by + are all predicted targets of the reagent.

Target gene	PubChem SID	Wolbachia per cell robust z, rep 1	Wolbachia per cell robust z, rep 2	Wolbachia per cell robust z, rep 3	Outcome
Rpe	SID104186199	-0.212	0.824	-5.33	inactive
Ir7e	SID104197803	0.129	0.488	0.0891	inactive
CG33964 + CG13175	SID104186092	-0.861	-2.89	-0.822	inactive
CG33964 + CG13175	SID104186093	-0.765	0.153	0.069	inactive
TRAM	SID104197970	-0.633	-7.95	0.263	inactive
TRAM	SID104198443	0.0758	-0.339	-0.868	inactive
Ras85D	SID104196606	-3.63	2.27	3.43	active
Ras85D	SID104216707	-2.4	0.188	0.13	inactive
CR13656	SID104193497	0.797	1.46	0.206	inactive
CR13656	SID104194448	0.811	-2.04	-4.91	inactive
TotZ	SID104193242	0.855	0.526	-1.19	inactive
Ptp4E	SID104198493	-3.2	0.321	0.153	inactive
CIAPIN1	SID104183351	0.392	-0.239	0.294	inactive
CIAPIN1	SID104203005	0.65	-0.414	-0.734	inactive
CIAPIN1	SID104218779	-0.715	-0.988	-0.752	inactive
Nemp	SID104199998	-1.24	0.0923	-1.1	inactive
Nemp	SID104205507	-0.0426	1.28	0.7	inactive

Hits, among the entries above:
Target gene	PubChem SID	Wolbachia per cell robust z, rep 1	Wolbachia per cell robust z, rep 2	Wolbachia per cell robust z, rep 3	Outcome
Ras85D	SID104196606	-3.63	2.27	3.43	active

Next reagents follow:
Target gene	PubChem SID	Wolbachia per cell robust z, rep 1	Wolbachia per cell robust z, rep 2	Wolbachia per cell robust z, rep 3	Outcome
Pdh	SID104191041	0.74	0.51	-4.22	inactive
Pdh	SID104205539	0.383	-0.355	-0.418	inactive
mTerf3	SID104191551	-2.01	-0.235	0.0643	inactive
CG42494	SID104218145	0.552	0.318	1.43	inactive
Klp31E	SID104183146	0.344	0.172	0.198	inactive
Traf4	SID104180237	-0.179	0.925	-4	inactive
Traf4	SID104180586	-2.57	-3.89	-0.444	active
Cpr65Ea	SID104190819	-6.7	0.713	-0.045	inactive
Cpr65Ea	SID104204236	-0.531	0.518	0.668	inactive
CG11865	SID104181664	0.245	0.869	1.02	inactive
CG11865	SID104206717	0.474	0.116	1.07	inactive
CG31784	SID104181366	0.24	0.101	-0.494	inactive
CG9360	SID104199972	0.452	-0.617	0.686	inactive
Taf2	SID104191090	0.623	-0.676	-1.39	inactive
Taf2	SID104204759	0.119	0.0241	-1.58	inactive
Vps28	SID104185960	0.215	0.808	0.537	inactive
Ddx56	SID104200359	-2	-1.69	-4.37	active
Ddx56	SID104204709	0.652	0.855	0.336	inactive
Cpr56F	SID104187118	-1.73	0.0971	0.416	inactive
Cpr56F	SID104202984	-0.549	0.951	-0.168	inactive
cato	SID104187381	0.141	-3.17	-2.3	inactive
Ugalt	SID104198259	0.925	0.367	-1.18	inactive
Cyp4p3	SID104187166	-1.11	-0.0331	-0.165	inactive
Cyp4p3	SID104205277	-1.28	-2	-1.21	inactive
CG32655	SID104198717	-0.433	1.47	0.515	inactive
Uba2	SID104191103	0.371	-0.0903	-3.37	inactive
Gdap2	SID104186581	0.46	0.315	-0.0485	inactive
Gdap2	SID104186582	1.33	0.9	0.833	inactive
Mctp	SID104186302	-0.172	-1.05	0.368	inactive
Mctp	SID104202255	0.252	-4.01	1.12	inactive
Mctp	SID104204050	-0.174	-0.849	0.111	inactive
Mctp	SID104207465	-1.46	-3.44	-1.9	active
